# Record: PubChem BioAssay AID624099 (ICCB-Longwood, 2012)
# Aim: 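Host factors E2 relies on to silence an HPV18 LCR reporter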 (primary screen)
# Cell system: human C33A cervical carcinoma cells (HPV-negative) stably expressing BPV1 E2 and an HPV18 LCR luciferase reporter
# Knock-down reagent: siRNA pool against human genes, 40 nM
# Duration: 72 h
# Measurement: 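Per-well luciferase luminescence, z-scored on each plate against the plate mean and SD with control wells left out, then averaged across three replicate plates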
# Reading the numbers: mean z-score and z-score: higher = stronger reporter signal, weaker E2 silencing
# Rule for the call: 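Hit if mean z-score reaches 2 and two or more of three replicate z-scores also reach 2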
# Shown is one part, drawn at random, of about 21,000 reagents tested. In the full data, 497 (2.4%) got an active call. 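Higher z means weaker E2 silencing; only reporter increases were scored, and knock-downs that hurt cell survival may mask genuine repressor factors.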 The numbers tell different reagents against one gene apart. No sequences are given here.
Target gene,reagent no.,mean z-score,"z-score, replicate A","z-score, replicate B","z-score, replicate C",outcome
NDOR1 (NADPH dependent diflavin oxidoreductase 1),1,-0.79,-0.45,-0.64,-1.28,inactive
NDOR1 (NADPH dependent diflavin oxidoreductase 1),2,-0.84,-0.54,-0.59,-1.39,inactive
LOC341098 (retired record),1,0.25,0.04,0.55,0.15,inactive
PPP1R3A (protein phosphatase 1 regulatory subunit 3A),1,-0.25,-0.44,-0.12,-0.19,inactive
RHBG (Rh family B glycoprotein),1,0.06,0,0.45,-0.27,inactive
CDC14C (cell division cycle 14C),1,-0.02,0.14,-0.11,-0.1,inactive
MSH2 (mutS homolog 2),1,0.25,0.25,-0.13,0.61,inactive
LINC03086 (long independently transcribed non-coding RNA 3086),1,0.92,0.9,0.91,0.94,inactive
RPS10P10 (ribosomal protein S10 pseudogene 10),1,1.76,1.74,1.98,1.55,inactive
CCDC188 (coiled-coil domain containing 188),1,0.34,0.48,0.34,0.21,inactive
MRFAP1 (Morf4 family associated protein 1),1,-0.86,-0.64,-0.93,-1,inactive
TRMT10A (tRNA methyltransferase 10A),1,-1.21,-1.11,-1.3,-1.22,inactive
LOC387762 (retired record),1,-0.21,0.16,-0.35,-0.44,inactive
ALMS1P1 (ALMS1 pseudogene 1),1,0.28,0.09,0.13,0.62,inactive
VRK2 (VRK serine/threonine kinase 2),1,1.27,1.11,1.45,1.24,inactive
ATXN3 (ataxin 3),1,0.69,0.52,0.83,0.73,inactive
TBC1D26 (TBC1 domain family member 26),1,0.5,0.36,0.32,0.83,inactive
LOC157813 (retired record),1,0.55,0.61,0.69,0.33,inactive
TMEM225 (transmembrane protein 225),1,0.48,0.2,0.84,0.4,inactive
DPP8 (dipeptidyl peptidase 8),1,0.3,0.97,0.55,-0.62,inactive
PRAME (PRAME nuclear receptor transcriptional regulator),1,1.57,1.86,1.41,1.42,inactive
CDH12 (cadherin 12),1,-0.68,-0.85,-0.58,-0.6,inactive
ACTR5 (actin related protein 5),1,-0.95,-1.11,-0.82,-0.92,inactive
PPP1R3G (protein phosphatase 1 regulatory subunit 3G),1,-0.24,-0.21,-0.48,-0.03,inactive
LCIIAR (lung cancer immune cell infiltration associated lncRNA),1,0.71,0.5,0.53,1.11,inactive
LOC401464 (retired record),1,0.39,0.25,0.76,0.16,inactive
LOC339553 (retired record),1,1.84,1.85,2.01,1.68,inactive
GLB1 (galactosidase beta 1),1,-0.21,-0.17,-0.06,-0.39,inactive
"TNNI1 (troponin I1, slow skeletal type)",1,0.11,-0.01,0.35,0,inactive
ARF6 (ARF GTPase 6),1,-0.7,-0.74,-0.71,-0.66,inactive
FAM90A1 (family with sequence similarity 90 member A1),1,0.66,0.54,0.3,1.15,inactive
OR9G4 (olfactory receptor family 9 subfamily G member 4),1,0.55,0.91,0.37,0.37,inactive
LOC390565 (retired record),1,-0.48,-0.62,-0.43,-0.4,inactive
FCGR2A (Fc gamma receptor IIa),1,0.12,0.16,0.04,0.15,inactive
PLIN3 (perilipin 3),1,-0.17,0.21,-0.2,-0.53,inactive
MPC1,1,-0.58,-0.65,-0.31,-0.77,inactive
FRG2C (FSHD region gene 2 family member C),1,0.42,0.28,0.36,0.6,inactive
EPS15L1 (epidermal growth factor receptor pathway substrate 15 like 1),1,-0.6,-0.66,-0.54,-0.58,inactive
CXCL10 (C-X-C motif chemokine ligand 10),1,-0.23,-0.06,-0.18,-0.46,inactive
ATP4B (ATPase H+/K+ transporting subunit beta),1,0.04,-0.07,0.32,-0.13,inactive
RENBP (renin binding protein),1,0.08,-0.04,0.09,0.2,inactive
CRYAB (crystallin alpha B),1,0.29,0.31,0.38,0.18,inactive
EHD2 (EH domain containing 2),1,-0.08,-0.19,-0.01,-0.04,inactive
CNGA3 (cyclic nucleotide gated channel subunit alpha 3),1,0.41,0.31,0.52,0.39,inactive
LAIR2 (leukocyte associated immunoglobulin like receptor 2),1,-0.69,-0.62,-0.74,-0.7,inactive
ADGRF5 (adhesion G protein-coupled receptor F5),1,0.07,0.11,0.15,-0.06,inactive
NOC4L (nucleolar complex associated 4 homolog),1,-0.61,-0.44,-0.75,-0.63,inactive
LETM1,1,1.09,1.23,0.75,1.28,inactive
UBE2N (ubiquitin conjugating enzyme E2 N),1,-0.42,-0.28,-0.68,-0.31,inactive
H3-3A (H3.3 histone A),1,-0.71,-0.64,-0.78,-0.7,inactive
LOC401545 (retired record),1,0.67,0.74,0.58,0.7,inactive
KATNIP (katanin interacting protein),1,0.67,0.85,0.54,0.62,inactive
C5AR2 (complement C5a receptor 2),1,0.6,0.49,0.41,0.91,inactive
LOC402559 (retired record),1,-0.38,-0.09,-0.9,-0.14,inactive
PSPH (phosphoserine phosphatase),1,-0.29,-0.2,-0.39,-0.27,inactive
EGFL7 (EGF like domain multiple 7),1,0.17,0.27,-0.13,0.36,inactive
CEP152 (centrosomal protein 152),1,-1.14,-1.19,-1.06,-1.16,inactive

8 entries from above, set out differently:
Target gene | reagent no. | mean z-score | z-score, replicate A | z-score, replicate B | z-score, replicate C | outcome
FAM90A1 (family with sequence similarity 90 member A1) | 1 | 0.66 | 0.54 | 0.3 | 1.15 | inactive
OR9G4 (olfactory receptor family 9 subfamily G member 4) | 1 | 0.55 | 0.91 | 0.37 | 0.37 | inactive
LOC390565 (retired record) | 1 | -0.48 | -0.62 | -0.43 | -0.4 | inactive
FCGR2A (Fc gamma receptor IIa) | 1 | 0.12 | 0.16 | 0.04 | 0.15 | inactive
PLIN3 (perilipin 3) | 1 | -0.17 | 0.21 | -0.2 | -0.53 | inactive
MPC1 | 1 | -0.58 | -0.65 | -0.31 | -0.77 | inactive
FRG2C (FSHD region gene 2 family member C) | 1 | 0.42 | 0.28 | 0.36 | 0.6 | inactive
EPS15L1 (epidermal growth factor receptor pathway substrate 15 like 1) | 1 | -0.6 | -0.66 | -0.54 | -0.58 | inactive
